Data from paper PMC7790381, “Directed evolution reveals the mechanism of HitRS signaling transduction in Bacillus anthracis” (2020).
pKd: −log10 of the molar value.

Experiments:
[1] = molecular target: HitR WT (B. anthracis); test: SEC
[2] = molecular target: HitR WT (B. anthracis); test: MST
[3] = test system: HitR WT (Bacillus anthracis); test: EMSA
[4] = test system: HitR M58I (Bacillus anthracis); test: EMSA
[5] = test system: HitR K168A (Bacillus anthracis); test: EMSA
[6] = test system: HitR E203A (Bacillus anthracis); test: EMSA

HitR WT (natural protein) gave a percent dimer [1] of 45%, a percent monomer [1] of 55% and a stoichiometry N [1] of 2.
For “HitS WT, intracellular region (residue 68 to 352) (domain or fragment)”, the pKd [2] was 6.41.
For “HitS WT, intracellular region (residue 68 to 352), autophosphorylated (domain or fragment)”, the pKd [2] was 6.57.
hitPRS promoter 202 bp showed a pKd [3] of 7.26, a binding signal (fold higher affinity than WT) [4] of 5 and a binding signal (fold higher affinity than WT) [5] of 10. It also gave a binding signal (fold higher affinity than WT) [6] of 10.
